Test results published in ChEMBL document CHEMBL4706564 (Eur J Med Chem, 2020).

How the values were obtained:
[1] = Selectivity index, ratio of CC50 for African green monkey Vero cells to IC50 for MARV Popp infected in African green monkey Vero cells
[2] = Selectivity index, ratio of CC50 for human HEK293T cells to IC50 for glycoprotein in VSV-G pseudotyped EBOV Mayinga infected in human HEK293T cells
[3] = Selectivity index, ratio of CC50 for African green monkey Vero cells to IC50 for Zaire ebolavirus infected in African green monkey Vero cells

SMILES | Ratio CC50/IC50 [1] | Ratio CC50/IC50 [2] | Ratio CC50/IC50 [3]
CC1CCN(CCC(=O)O[C@@H]2C[C@@H]3CC[C@@]2(C)C3(C)C)CC1.Cl | 25 | 171 | 2.2
CC1(C)[C@H]2CC[C@]1(C)[C@H](OC(=O)CCN1CCCCC1)C2.Cl | 15 | 112 | 31
CC1CCN(CC(=O)N[C@@H]2C[C@H]3CC[C@]2(C)C3(C)C)CC1 | – | 2.9 | –
CC1(C)[C@@H]2CC[C@@]1(C)[C@H](NC(=O)CCN1CCOCC1)C2 | – | 14 | –
CCN1CCN(CCC(=O)O[C@@H]2C[C@@H]3CC[C@@]2(C)C3(C)C)CC1 | 1 | 170 | –
CC1(C)[C@H]2CC[C@]1(C)[C@H](OC(=O)CCN1CCCCC1)C2 | 118 | 170 | 9
CC1CCN(CCCC(=O)O[C@@H]2C[C@@H]3CC[C@@]2(C)C3(C)C)CC1 | – | 18 | –
CN1CCN(CCCC(=O)O[C@@H]2C[C@@H]3CC[C@@]2(C)C3(C)C)CC1 | – | 160 | –
CC1CCN(CCC(=O)O[C@@H]2C[C@@H]3CC[C@@]2(C)C3(C)C)CC1 | 32 | 956 | 1.3
